In article PMC8976035, “Pharmacodynamic, pharmacokinetic, and phase 1a study of bisthianostat, a novel histone deacetylase inhibitor, for the treatment of relapsed or refractory multiple myeloma” (Acta Pharmacologica Sinica, 2021):

Details: human, in vivo

With O=C(CCCCNC(=O)c1nc(-c2nccs2)sc1C1CC1)NO [BIS] the “grade 2 nausea and vomiting” value was “one patient”.
